{
  "source": "patent EP4014973B1",
  "about": "“INHALED LIQUID FOR THE TREATMENT OF RESPIRATORY INFECTIONS IN HUMANS CAUSED BY PATHOGENS RESISTANT TO ANTIBIOTICS” (Conick Biotech LLC, priority 2020, dated 2022)",
  "tested_on": "humans",
  "assay": "Clinical pilot study of side effects after inhalation",
  "settings": "80 humans; blood samples before the test, on the 4th and 8th day",
  "data": [
    {"compound": "C=CCc1ccc(O)c(OC)c1.CCN(CC)CC(=O)Nc1c(C)cccc1C", "note": "[Novel Compound, N-[N'-(carboxymethylenyl-2,6-dimethyl-aniline)-N,N-diethylammonium]-[2'-methoxy-4'-(2'-propenyl)]-phenolate.]", "values": [
      {"measurement": "liver function biochemical analysis from blood samples", "result": "did not have any negative clinical or acute effects on the hepatic function"}
    ]}
  ]
}
